## Share of PSTVd loop 15 variants by leaf site

PSTVd intermediate strain, loop 15: wild type GGAAACCGCUACUAC, pool pattern GGAAACCGNNNNNNC; upper and lower strand joined, each 5' to 3', the first 7 letters being the upper strand, closing pairs included.

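A pool of all variants was put on leaves of three Nicotiana benthamiana plants. Samples came from the inoculated region at 5 days, the leaf margin at 10 and upper systemic leaves at 12.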

Numbers give reads per thousand; 0 = not seen among the reads, higher = more abundant. Each site shows the three plants. "Pool" is the share in the plasmid pool used as inoculum, on the same scale. The inoculated region was read from the minus strand, the other sites from the plus strand. For reference, wild type rose from 33.9 per thousand in the pool to 202, 200, 159 (inoculated region), 724, 746, 710 (leaf margin) and 856, 883, 880 (systemic leaves). Sequences that differ at fixed positions probably stem from PCR or sequencing errors, and defective variants can be carried along by functional ones. Samples held 43,870 to 66,106 reads, so the smallest values rest on one or two reads.

GGAAACCGGAGAUGC (pool 0.256) read inoculated region 0.0655 / 0.0643 / 0.0952; leaf margin 0 / 0 / 0; systemic leaves 0 / 0 / 0.0228.
GGAAACCGGCGAAAC (pool 0.224) read inoculated region 0.131 / 0.0321 / 0.171; leaf margin 0.0162 / 0 / 0; systemic leaves 0 / 0 / 0.
GGAAACCGCCCAGUC (pool 0.224) read inoculated region 0.0655 / 0.0964 / 0.0952; leaf margin 0 / 0.0223 / 0.0200; systemic leaves 0 / 0 / 0.
GGAAACCGGUUUGCC (pool 0.208) read inoculated region 0.0655 / 0.0803 / 0.0762; leaf margin 0.0162 / 0 / 0.0200; systemic leaves 0 / 0 / 0.
GGAAACCGGCUAAUC (pool 0.256) read inoculated region 0.0655 / 0.0643 / 0.209; leaf margin 0 / 0 / 0; systemic leaves 0 / 0 / 0.
GGAAACCGCUGCCGC (pool 0.240) read inoculated region 0.0655 / 0.0803 / 0.209; leaf margin 0.0485 / 0.0223 / 0.0200; systemic leaves 0 / 0 / 0.
GGAAACCGGCUCACC (pool 0.320) read inoculated region 0.0819 / 0.193 / 0.171; leaf margin 0 / 0.0223 / 0.0601; systemic leaves 0 / 0.0151 / 0.
GGAAACCGUAUAAGC (pool 0.208) read inoculated region 0.0655 / 0.0803 / 0.171; leaf margin 0 / 0 / 0; systemic leaves 0 / 0 / 0.
GGAAACCGAACUCUC (pool 0.240) read inoculated region 0.147 / 0.257 / 0.171; leaf margin 0 / 0 / 0.0200; systemic leaves 0 / 0.0151 / 0.
GGAAACCGCCGAUCC (pool 0.224) read inoculated region 0.0983 / 0.0643 / 0.0381; leaf margin 0 / 0 / 0; systemic leaves 0 / 0 / 0.
GGAAACCGGGGGCCC (pool 0.288) read inoculated region 0.164 / 0.0964 / 0.152; leaf margin 0.0162 / 0 / 0; systemic leaves 0.0322 / 0 / 0.
GGAAACCGGCCUGUC (pool 0.160) read inoculated region 0.0491 / 0.0643 / 0.0952; leaf margin 0 / 0.0223 / 0.0200; systemic leaves 0 / 0 / 0.0228.
GGAAACCGCCCCCAC (pool 0.288) read inoculated region 0.0983 / 0.0803 / 0.0762; leaf margin 0 / 0 / 0.0401; systemic leaves 0.0161 / 0 / 0.
GGAAACCGGUGCUAC (pool 0.160) read inoculated region 0.0819 / 0.0803 / 0.0571; leaf margin 0 / 0 / 0.0401; systemic leaves 0 / 0 / 0.
GGAAACCGCUGUCGC (pool 0.288) read inoculated region 0.0655 / 0.0643 / 0.0571; leaf margin 0 / 0.0223 / 0.0200; systemic leaves 0 / 0 / 0.
GGAAACCGUAACUUC (pool 0.224) read inoculated region 0.753 / 0.739 / 0.590; leaf margin 0.194 / 0.156 / 0.140; systemic leaves 0.0644 / 0.106 / 0.205.
GGAAACCGGCUCUAC (pool 0.256) read inoculated region 0.0655 / 0.0964 / 0.0952; leaf margin 0.0323 / 0.0223 / 0; systemic leaves 0.0161 / 0 / 0.
GGAAACCGUGGUCCC (pool 0.176) read inoculated region 0.0328 / 0.0964 / 0.0190; leaf margin 0 / 0 / 0; systemic leaves 0 / 0 / 0.
GGAAACCGCUGAUAC (pool 0.0960) read inoculated region 0.311 / 0.353 / 0.419; leaf margin 0.113 / 0.0445 / 0.180; systemic leaves 0.0322 / 0.0756 / 0.0912.
GGAAACCGAUGCCUC (pool 0.240) read inoculated region 0.0655 / 0.129 / 0.190; leaf margin 0.0162 / 0 / 0.0200; systemic leaves 0 / 0 / 0.
GGAAACCGCCCAUGC (pool 0.240) read inoculated region 0.311 / 0.386 / 0.362; leaf margin 0.113 / 0.0668 / 0.260; systemic leaves 0.0483 / 0 / 0.
GGAAACCGCAACCAC (pool 0.144) read inoculated region 0.344 / 0.257 / 0.457; leaf margin 0.178 / 0.111 / 0.120; systemic leaves 0.0161 / 0 / 0.
GGAAACCGAAAACUC (pool 0.192) read inoculated region 0.147 / 0.0803 / 0.114; leaf margin 0.0162 / 0 / 0.0200; systemic leaves 0 / 0 / 0.
GGAAACCGGUAUGGC (pool 0.272) read inoculated region 0.0983 / 0.0321 / 0.0762; leaf margin 0 / 0 / 0; systemic leaves 0 / 0 / 0.
GGAAACCGCCUGCCC (pool 0.288) read inoculated region 0.0328 / 0.0803 / 0.0762; leaf margin 0 / 0 / 0; systemic leaves 0.0161 / 0 / 0.
GGAAACCGGACUCCC (pool 0.240) read inoculated region 0.0983 / 0.0803 / 0.0571; leaf margin 0 / 0 / 0; systemic leaves 0.0161 / 0 / 0.
GGAAACCGUUACAAC (pool 0.144) read inoculated region 0.246 / 0.225 / 0.343; leaf margin 0.129 / 0.0891 / 0.200; systemic leaves 0.0483 / 0.0605 / 0.114.
GGAAACCGACAAACC (pool 0.240) read inoculated region 0.0655 / 0.112 / 0.0190; leaf margin 0.0162 / 0 / 0; systemic leaves 0 / 0 / 0.
GGAAACCGUGGUCUC (pool 0.112) read inoculated region 0.0491 / 0.0964 / 0.0762; leaf margin 0 / 0 / 0.0401; systemic leaves 0 / 0 / 0.
GGAAACCGUUGCAUC (pool 0.144) read inoculated region 0.0983 / 0.0161 / 0.114; leaf margin 0 / 0 / 0.0401; systemic leaves 0 / 0 / 0.
GGAAACCGCGGUUUC (pool 0.176) read inoculated region 0.0491 / 0.0321 / 0.0952; leaf margin 0.0162 / 0 / 0.0200; systemic leaves 0 / 0 / 0.
GGAAACCGAGUGCUC (pool 0.240) read inoculated region 0.0819 / 0.0161 / 0.0762; leaf margin 0.0323 / 0.0223 / 0.0200; systemic leaves 0 / 0 / 0.

2 of these entries, quoted again:

{"sequence": "GGAAACCGGUUUGCC", "pool": "0.208", "inoculated region": "0.0655 / 0.0803 / 0.0762", "leaf margin": "0.0162 / 0 / 0.0200", "systemic leaves": "0 / 0 / 0"}
{"sequence": "GGAAACCGGCUCACC", "pool": "0.320", "inoculated region": "0.0819 / 0.193 / 0.171", "leaf margin": "0 / 0.0223 / 0.0601", "systemic leaves": "0 / 0.0151 / 0"}

Values reported by Wu et al. 2024 (doi:10.1371/journal.ppat.1012142).